This is an account of results in patent US20240309004A1, “SELECTIVE CYCLIN-DEPENDENT KINASE INHIBITORS AND METHODS OF THERAPEUTIC USE THEREOF” (ViroKyne Therapeutics, LLC, priority 2021, published 2024).

The subject of data set [1] is Human papillomavirus 11 strain HE611260.1. Description: Human papillomavirus 11 primary assay (replicon), C-33 A cells. It is filed as cell-based. The following applies: for SI50: CC50/EC50, HPV11 primary assay; for SI90: selectivity index at EC90, HPV11 primary assay. From the text:
An HPV11 replicon assay was developed and expresses the essential E1 and E2 proteins from the native promoter. The E2 origin binding protein interacts with the virus origin of replication and recruits the E1 replicative helicase which unwinds the DNA and helps to recruit the cellular DNA replication machinery (including DNA polymerases, type I and type II topoisomerases, DNA ligase, single-stranded DNA binding proteins, proliferating cell nuclear antigen). The replication complex then drives the amplification of the replicon which can be assessed by the expression of a destabilized NanoLuc reporter gene carried on the replicon. In this assay, the replicon (pMP619) is transfected into C-33 A cells grown as monolayers in 384-well plates. At 48 h post transfection, the enzymatic activity of the destabilized NanoLuc reporter is assessed with NanoGlo reagent. […] . Beadle et al., 2016.
(Replicon systems follow genome replication, usually without infectious particles.)

Data set [2] relates to Guinea pig CMV strain 22122. Kind of data set: Guinea pig CMV primary assay, strain 22122, GP lung cells. It is filed as cell-based, guinea pig cytomegalovirus. Conditions: Guinea pig CMV primary assay, 22122, GP lung cells; for SI50: CC50/EC50; for SI90: selectivity index at EC90.
In data set [3] the test system is Adenovirus Adenoid75 strain. Kind of data set: Adenovirus primary assay, Adenoid75 strain, HFF cells. Format: cell-based. The following applies: for SI50: CC50/EC50; for SI90: selectivity index at EC90.
Data set [4] has as its system VZV strain 15-6-001 resistant isolate. It is filed as cell-based, Varicella Zoster Virus. The following applies: VZV 15-6-001 resistant isolate, HFF. The method, then:
(§1) Assays were performed in monolayers as described. […] Toxicity was measured using CTG as above. […] Toxicity was measured using CTG as above.
(§2) Monolayers of HFF cells were prepared in six-well plates and incubated at 37° C. for 2 d to allow the cells to reach confluency. Media was then aspirated from the wells and 0.2 mL of virus-containing solution was added to each of three wells to yield 20-30 plaques in each well. The virus was allowed to adsorb to the cells for 1 h and the plates were agitated every 15 minutes. Compounds were diluted in assay media consisting of MEM with Earl's salts supplemented with 2% FBS, glutamine, penicillin, and gentamycin. Diluted drug was added to duplicate wells and the plates were incubated for various times, depending on the virus used. For HSV-1 and -2, the monolayers were then stained with 1% crystal violet in 20% methanol and the unbound dye removed by washing with dH20. For all other assays, the cell monolayer was stained with 1% Neutral Red solution for 4-6 h then the stain was aspirated and the cells were washed with PBS.

In data set [5] the test system is Guinea pig CMV strain 22122. Kind of data set: Guinea pig CMV secondary assay, strain 22122, GP lung cells. It is filed as cell-based, guinea pig cytomegalovirus. The following applies: Guinea pig CMV secondary assay, 22122, GP lung cells; for SI50: CC50/EC50; for SI90: selectivity index at EC90.
The next data set deals with Murine CMV strain Smith. Kind of data set: Murine CMV primary assay, strain Smith, MEF cells. It is filed as cell-based, Mouse Cytomegalovirus.
The test system of a further data set is HCMV strain AD169. Kind of data set: HCMV primary assay (CPE), strain AD169, HFF cells. Format: cell-based, Human Cytomegalovirus. The following applies: for SI50: CC50/EC50; for SI90: selectivity index at EC90. The method, then:
The antiviral activity of the compound against HCMV in the described Primary assay was measured by treating primary Human foreskin fibroblast (HFF) cells infected with HCMV with a range of compound concentrations—description of methods for this assay can be found in section 1.3.2.1. […] . Additional tested assay parameters in this Primary assay can be found in Table 3.2.1 and include EC90, S150, and S190 values—descriptions of those data points can be found in section 3.2.1.

In the next data set the test system is HSV1 strain E-377. Kind of data set: HSV1 primary assay, strain E-377, HFF cells. Format: cell-based, Herpes Simplex Virus 1. The following applies: for SI50: CC50/EC50; for SI90: selectivity index at EC90. The method, then:
as §1, §2

A further data set deals with VZV strain Ellen. Kind of data set: VZV primary assay, strain Ellen, HFF cells. Conditions: for SI50: CC50/EC50; for SI90: selectivity index at EC90. It is filed as cell-based, Varicella Zoster Virus. The method, then: as §1, §2
A further data set deals with HSV2 strain G. Description: HSV2 primary assay, strain G, HFF cells. It is filed as cell-based, herpes simplex virus 2. The following applies: for SI50: CC50/EC50; for SI90: selectivity index at EC90. The method, then:
as §1, §2

Take `Nc1nc2c(ncn2CCOCP(=O)(O)O)c(=O)[nH]1` [9-[2-phosohono-methoxy)ethyl]guanine, reference compound]: in data set [1], the SI50 is 4 µM and the SI90 turned out to be 4 µM.
For the compound `Nc1ccn(C[C@@H](CO)OCP(=O)(O)O)c(=O)n1` [Cidofovir, reference compound], the SI50 is 148 µM in data set [2], 31 µM in data set [3], 101 µM in data set [4] (CC50/EC50) and 36 µM in [5]. Further, the SI90 was 128 µM in [2], 1 µM in data set [3], 4 µM in data set [4] (selectivity index at EC90) and 28 µM in data set [5].
As to `Nc1nc(O)c2ncn(COC(CO)CO)c2n1` [Ganciclovir, ganciclovir, reference compound], the SI50 with Murine CMV strain Smith (CC50/EC50) worked out at 27 µM; in the data set with HCMV strain AD169, 84 µM. Moreover, the values for the SI90 in the data set with Murine CMV strain Smith (selectivity index at EC90) and in the data set with HCMV strain AD169 were 6 µM and 26 µM, respectively.
`NC(=O)CN1CCC(Nc2cc3c4ccc(F)cc4nn3cn2)CC1` [VKT-026]: the SI50 in the data set on HSV1 strain E-377 was 4 µM; in data set [2], 1 µM; in data set [1], 3 µM; in the data set with HCMV strain AD169, 18 µM; in the data set on VZV strain Ellen it was 2 µM; in [3], 3 µM. Moreover, the SI50 with HSV2 strain G was 3 µM; in data set [5], 4 µM. The SI90 was found to be 4 µM in the data set with HSV1 strain E-377; 1 µM in data set [2]; 3 µM in [1]; 3 µM in the data set on HCMV strain AD169; 2 µM in the data set on VZV strain Ellen; 2 µM in data set [3]. Also, the SI90 is 3 µM in the data set on HSV2 strain G and 1 µM in data set [5].
As to `CC(C)(C)OC(=O)N[C@@H]1CC[C@H](Nc2cc3c4ccc(F)cc4nn3cn2)C1` [VKT-033], the SI50 in the data set on HSV1 strain E-377 stood at 2 µM; in the data set with HCMV strain AD169, 4 µM; in the data set with VZV strain Ellen, 2 µM; in data set [3], 3 µM; in the data set on HSV2 strain G, 2 µM. Further, the SI90 in the data set on HSV1 strain E-377 was 2 µM; in the data set with HCMV strain AD169 it was 4 µM; in the data set with VZV strain Ellen, 2 µM; in [3] it was 3 µM; in the data set on HSV2 strain G, 2 µM.
In the case of `Fc1ccc2c(c1)nn1cnc(NC3CCNCC3)cc21` [VKT-319, 7-fluoro-N-(piperidin-4-yl)pyrimido[1,6-b]indazol-3-amine], in the data set on HCMV strain AD169, the SI50 came out at 4 µM and the SI90 amounted to 4 µM.
Regarding `Fc1ccc2c(c1)nn1cnc(NC3CCOCC3)cc21` [VKT-320, 7-fluoro-N-(tetrahydro-2H-pyran-4-yl)pyrimido[1,6-b]indazol-3-amine], the SI50 in data set [1] was determined as 6 µM; in the data set on HCMV strain AD169, 4 µM. Besides, the SI90 in data set [1] was determined as 3 µM; in the data set on HCMV strain AD169, 4 µM.
Take `N[C@H]1CC[C@H](Nc2cc3c4ccc(F)cc4nn3cn2)CC1` [VKT-511, (1r,4r)-N1-(7-fluoropyrimido[1,6-b]indazol-3-yl)cyclohexane-1,4-diamine]: in the data set with HCMV strain AD169, the SI50 was determined as 3 µM and the SI90 came to 3 µM.
